Results of unrelated studies side by side (data: NIAID ChemDB).

Common to all: tests on isolated targets; species: HIV-1; target: Reverse transcriptase

a–b is a range or a potency band.

structure	read by	read-out	changes	strain or isolate	value
CC(=O)Oc1c(OCC(=O)c2ccc(-c3ccccc3)cc2)ccc2c1C(=O)c1ccccc1C2=O		IC50	Y181C		>100 µM
CCn1c(=O)c(C)cn([C@@H]2O[C@H](CO[Si](C)(C)C(C)(C)C)C3(OS(=O)(=O)C=C3N)[C@H]2O[Si](C)(C)C(C)(C)C)c1=O		IC50			0.7 µM
CCN1c2ncccc2C(=O)N(C)c2ccc(-c3cc4cc(OC)ccc4[nH]3)nc21	nucleotide incorporation / radiometric	IC50	RT-Y188L		<1 µM
C=CCN1C(=O)c2ccnnc2Oc2c(C)cc(C)cc21	ELISA	IC50			<330 µM
NCC1OC(n2cnc3c(N)ncnc32)C(OP(=O)(O)OCC2OC(n3cnc4c(N)ncnc43)C(OP(=O)(O)OCCOCn3cnc4c(N)ncnc43)C2O)C1O	RT activity	IC50		IIIB	<100 µM
NS(=O)(=O)c1ccc(NC(=O)CSc2nnc(Br)n2-c2ccc(C3CCC3)c3ccccc23)c(Cl)c1	nucleotide incorporation / radiometric	IC50			<0.05 µM
CC(=O)COc1ccc2c(c1OCC(C)=O)C(=O)c1ccccc1C2=O		IC50	K103N		64 µM
Cc1ccc2c(C)cc(C)c(-n3c(SCC(=O)Nc4ccc(S(N)(=O)=O)cc4C)nnc3C(F)F)c2n1	nucleotide incorporation / radiometric	IC50			<0.05 µM
FC(F)c1nnc2c3ccccc3c(N3CCc4ccccc4C3)nn12	RT activity / fluorescence	IC90		KER2008	0.88 µM
CCN1c2ncccc2C(=O)N(C)c2ccc(-c3cn[nH]c3C)nc21	nucleotide incorporation / radiometric	IC50	RT-Y188L		<1 µM
COC(=O)[C@H](CC(C)C)NC(=O)c1ccc(NC(=O)CSc2nnc(Br)n2-c2ccc(C3CC3)c3ccccc23)c(Cl)c1	nucleotide incorporation / radiometric	IC50	RT-Y181C		<0.05 µM
Cc1ccc2c(c1)N(CC1CC1)C(=O)c1ccnnc1O2	ELISA	IC50			<330 µM
COc1cc2c(cc1N)CN(c1nn3c(C4CC4)nnc3c3ccccc13)CC2	RT activity / fluorescence	IC50		IIIB	3.79 µM
O=C(O)CCNC(=O)c1ccc(NC(=O)CSc2nnc(Br)n2-c2ccc(C3CC3)c3ccccc23)c(Cl)c1	nucleotide incorporation / radiometric	IC50			<0.05 µM
C=CCN1C(=O)c2ccnnc2Oc2ccc(C)cc21	ELISA	IC50			<330 µM
COc1c(C(=O)/C=C(/C)Nc2ccccc2)c(O)c(S(=O)(=O)Oc2ccc(F)cc2)c2occc12	RT activity / radiometric	IC50			0.0000067 µM
Cc1cc(C)c2ccccc2c1-n1c(SCC(=O)Nc2ccc(S(N)(=O)=O)cc2Cl)nnc1C(F)(F)F	nucleotide incorporation / radiometric	IC50	RT-Y181C		<0.05 µM
COc1ccc(OS(=O)(=O)c2c(O)c(-c3cc(C)on3)c(OC)c3ccoc23)cc1	RT activity / radiometric	IC50			0.0000053 µM
NS(=O)(=O)c1ccc(NC(=O)CSc2nncn2-c2ccc(C3CC3)c3ccccc23)c(Cl)c1	nucleotide incorporation / radiometric	IC50	RT-Y181C		0.05–0.1 µM
COc1ccc2c(c1)N(C(C)C)C(=O)c1ccnnc1O2	ELISA	IC50			<330 µM
CCc1ccc(-n2c(Br)nnc2SCC(=O)Nc2ccc(S(N)(=O)=O)cc2Br)c2ccccc12	nucleotide incorporation / radiometric	IC50	RT-Y188L		0.05–0.1 µM
CCOC(=O)c1cc(-c2ccc3c(n2)N(CC)c2ncccc2C(=O)N3C)c[nH]1	nucleotide incorporation / radiometric	IC50	RT-Y181C		<1 µM
CCCCCCCCCCCCCCCc1cccc(O)c1	RT activity / nucleotide incorporation	IC50			>100 µM
Cc1ccc2c(c1)CCN(c1nn3c(C4CC4)nnc3c3ccccc13)C2	RT activity / fluorescence	IC50		IIIB	0.19 µM
CCc1ccc(-n2c(C)nnc2SCC(=O)Nc2ccc(S(N)(=O)=O)cc2C)c2ccccc12	nucleotide incorporation / radiometric	IC50	RT-Y188L		>0.1 µM
CCN1c2ncccc2C(=O)N(C)c2ccc(-c3ccn(C)c3)nc21	nucleotide incorporation / radiometric	IC50	RT-Y181C		>1 µM
C=CCN1C(=O)c2ccnnc2Oc2ccc(OC)cc21	ELISA	IC50			<330 µM
CC(Sc1nnc(Br)n1-c1ccc(C2CC2)c2ccccc12)C(=O)Nc1ccc(S(N)(=O)=O)cc1Cl	nucleotide incorporation / radiometric	IC50	RT-Y188L		>0.1 µM
Cc1cc(C)c2c(c1)N(CC1CC1)C(=O)c1ccnnc1O2	ELISA	IC50			<330 µM
Cc1cc(C)c2ccccc2c1-n1c(SCC(=O)Nc2ccc(S(N)(=O)=O)cc2Cl)nnc1C(F)F	nucleotide incorporation / radiometric	IC50	RT-Y188L		>0.1 µM
CCOC(=O)c1cccn1S(=O)(=O)c1cc(Cl)ccc1N	nucleotide incorporation	IC50			0.4 µM
CC(=O)Oc1c(OCC(=O)c2ccc(Br)cc2)ccc2c1C(=O)c1ccccc1C2=O		IC50	K103N		9 µM
CCN1c2ncccc2C(=O)N(C)c2ccc(-c3c[nH]c(C(=O)O)c3)nc21	nucleotide incorporation / radiometric	IC50	RT-Y181C		>1 µM
Cc1cc(S(N)(=O)=O)ccc1NC(=O)CSc1nnc(Br)n1-c1c(Cl)cc(C2CCC2)c2ccccc12	nucleotide incorporation / radiometric	IC50			<0.05 µM
COc1c2ccoc2c(S(=O)(=O)Oc2ccc([N+](=O)[O-])cc2)c2oc(C)cc(=O)c12	RT activity / radiometric	IC50			0.0000089 µM
CCC(Oc1ccc2c(c1OC(C)=O)C(=O)c1ccccc1C2=O)C(C)=O		IC50			>100 µM
Cc1ccc2ccccc2c1-n1c(Br)nnc1SC(C)C(=O)Nc1ccc(S(N)(=O)=O)cc1Cl	nucleotide incorporation / radiometric	IC50			<0.05 µM
CCCCCC/C=C/CCCCCCCCCc1cccc(O)c1C(=O)O	RT activity / RNase H	IC50			58.5 µM
COc1c(-c2cc(C)[nH]n2)c(O)c(S(=O)(=O)Oc2ccc([N+](=O)[O-])cc2)c2occc12	RT activity / radiometric	IC50			0.0000043 µM
CCc1cc(C2CC2)ccc1-n1c(Br)nnc1SCC(=O)Nc1ccc(C(=O)O)cc1Cl	nucleotide incorporation / radiometric	IC50	RT-Y181C		0.05–0.1 µM
CN1C(=O)c2cccnc2N(C2CC2)c2nc(-c3cc[nH]c3)ccc21	nucleotide incorporation / radiometric	IC50	RT-Y181C		<1 µM
CC(=O)Nc1ccc2c(c1)CN(c1nn3c(C4CC4)nnc3c3ccccc13)CC2	RT activity / fluorescence	IC50		IIIB	0.15 µM
CCCCCC/C=C/CCCCCCCCCc1cccc(O)c1	RT activity / nucleotide incorporation	IC50			>100 µM
CCc1ccc(-n2c(I)nnc2SCC(=O)Nc2ccc(S(N)(=O)=O)cc2Cl)c2ccccc12	nucleotide incorporation / radiometric	IC50	RT-Y181C		0.05–0.1 µM
CCC(=O)c1ccc(F)c([C@H]2C[C@H]2NC(=O)Nc2ccc(Br)cn2)c1O		IC50	RT-K103N	IIIB	0.014 µM
NS(=O)(=O)c1ccc(NC(=O)CSc2nnc(C(F)F)n2-c2ccc(C3CC3)c3ccccc23)c(Cl)c1	nucleotide incorporation / radiometric	IC50	RT-Y181C		<0.05 µM
CCOC(=O)c1cccn1S(=O)(=O)c1ccc2[nH]c(=O)[nH]c2c1	nucleotide incorporation	IC50			2 µM
Cc1cc(C2CC2)c2ccccc2c1-n1c(Br)nnc1SCC(=O)Nc1ccc(C(=O)O)cc1Cl	nucleotide incorporation / radiometric	IC50			<0.05 µM
CCN1c2ncccc2C(=O)N(C)c2ccc(-c3cc[nH]c3)nc21	nucleotide incorporation / radiometric	IC50		WT	<1 µM
CC(C)OC(=O)CNC(=O)c1ccc(NC(=O)CSc2nnc(Br)n2-c2ccc(C3CC3)c3ccccc23)c(Cl)c1	nucleotide incorporation / radiometric	IC50	RT-Y181C		<0.05 µM
CCCCCCCCCCCCCCCC(=O)NCC1OC(n2cnc3c(N)ncnc32)C(OP(=O)(O)OCC2OC(n3cnc4c(N)ncnc43)C(OP(=O)(O)OCCOCn3cnc4c(N)ncnc43)C2O)C1O	RT activity	IC50		IIIB	<100 µM

Repeating the first 5 entries:

structure	read by	read-out	changes	strain or isolate	value
CC(=O)Oc1c(OCC(=O)c2ccc(-c3ccccc3)cc2)ccc2c1C(=O)c1ccccc1C2=O		IC50	Y181C		>100 µM
CCn1c(=O)c(C)cn([C@@H]2O[C@H](CO[Si](C)(C)C(C)(C)C)C3(OS(=O)(=O)C=C3N)[C@H]2O[Si](C)(C)C(C)(C)C)c1=O		IC50			0.7 µM
CCN1c2ncccc2C(=O)N(C)c2ccc(-c3cc4cc(OC)ccc4[nH]3)nc21	nucleotide incorporation / radiometric	IC50	RT-Y188L		<1 µM
C=CCN1C(=O)c2ccnnc2Oc2c(C)cc(C)cc21	ELISA	IC50			<330 µM
NCC1OC(n2cnc3c(N)ncnc32)C(OP(=O)(O)OCC2OC(n3cnc4c(N)ncnc43)C(OP(=O)(O)OCCOCn3cnc4c(N)ncnc43)C2O)C1O	RT activity	IC50		IIIB	<100 µM

An empty or dashed field is not shown. Lines come from different laboratories, so protocols vary. ICn: concentration for n% inhibition.